# Measured data: PubChem BioAssay AID1224833 (University of Georgia, 2016)
# Aim: 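Human genes whose knock-down alters rotavirus replication in monkey cells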 (primary screen)
# System: monkey MA104 kidney cells
# Reagents: siRNA pool against human genes, 50 nM
# Duration: 48 h knock-down before infection; read 24 h after infection
# Treatment: infection with rotavirus strain RV3 two days after transfection; infectious dose for this stage not given
# Measured: 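z-score of rotavirus antigen signal per well, from a fluorescent immunoassay, relative to non-targeting control wells on the same plate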
# Scale: z-score vs non-targeting control: higher = more rotavirus replication than with non-targeting control
# Hit rule: In these data the active calls have z-score vs non-targeting control at about -1 or lower, or at about 1 or higher
# Calls: active = z-score beyond 1 either way; inactive = z-score within 1 of zero
# This is an unselected part of about 12,000 deposited reagents. In the full data, about 5,600 (46%) got an active call. 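Active calls cover z-scores past 1 in both directions, so they include lowered as well as raised rotavirus replication.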 Unmarked entries are inactive. Reagent sequences are not shown.
gene,z-score vs non-targeting control
MYO6,-0.745
DUSP26,-1.08 (active)
PADI4,-0.817
AMY1B,-0.812
ALDH1B1,0.647
PRDM6,0.837
LOC401052 (retired record),-0.537
FSAF1,0.508
SCO2,-0.387
SLC12A2,1.58 (active)
C3orf62,1.01 (active)
KRT27,0.447
FRRS1,1.22 (active)
DELE1,0.527
RCN3,1.15 (active)
CCNL2,-0.0503
EOGT,1.05 (active)
PCDHB11,-1.52 (active)
PRAMEF8,-3.81 (active)
FKBP5,1.52 (active)
ZCCHC2,0.121
SATL1,-0.23
CLPP,3.09 (active)
C11orf68,0.562
CALHM2,-0.638
EIF4E3,-2.5 (active)
IFITM1,0.603
SLC24A1,0.748
HSPA1B,-3.29 (active)
IL17A,0.892

Part of the list above in another layout.
{"gene": "DELE1", "z-score vs non-targeting control": 0.527}
{"gene": "RCN3", "z-score vs non-targeting control": "1.15 (active)"}
{"gene": "CCNL2", "z-score vs non-targeting control": -0.0503}
{"gene": "EOGT", "z-score vs non-targeting control": "1.05 (active)"}
{"gene": "PCDHB11", "z-score vs non-targeting control": "-1.52 (active)"}

Additional entries follow.
gene,z-score vs non-targeting control
MIDEAS,1.08 (active)
SH3BP5,-2.11 (active)
SNED1,0.818
PRADC1,1.21 (active)
SLC9A6,-2.3 (active)
UGT1A4,-1.29 (active)
ERICH5,1.07 (active)
NUDT16L1,1.87 (active)
DDX20,-1.67 (active)
EPAS1,-1.02 (active)
CD74,-3.37 (active)
S100P,0.781
PRR35,1.58 (active)
IFNA7,0.211
NCKAP1L,-2.66 (active)
